According to ChEMBL document CHEMBL1155806, “Inorganic polyhedral metallacarborane inhibitors of HIV protease: a new approach to overcoming antiviral resistance” (J Med Chem, 2008):

Biological target: Human immunodeficiency virus type 1 protease (Human immunodeficiency virus 1, UniProt Q72874, A71V/E35D/G73S/I15V/I62V/L10I/L63P/L90M/N37S/R41K)
Assay: Inhibition of HIV1 recombinant protease L10I/I15V/E35D/N37S/R41K/I62V/L63P/A71V/G73S/L90M mutant expressed in Escherichia coli by spectrophotometric assay

`CC(C)CN(C[C@@H](O)[C@H](Cc1ccccc1)NC(=O)O[C@H]1CCOC1)S(=O)(=O)c1ccc(N)cc1` gave a Ki of 150 pM.
